# According to article PMC8184657 (iScience, 2021):
# Sequences of proteins named here, by UniProt entry; tags and fusion partners are left off. Residues count along the entry.
# UniProt P01317, 25-54 limits assumed: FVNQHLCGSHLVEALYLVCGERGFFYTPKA
# UniProt P01317, 85-105 limits assumed: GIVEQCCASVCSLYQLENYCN
# Assays:
# human insulin [1] = type: biochemical
# human insulin [2] = type: biochemical; remark: listed apart in the source
# insulin [3] = biological target: T1, insulin (Bos taurus, UniProt P01317); type: biochemical
# insulin [4] = biological target: T1, insulin; type: biochemical; remark: listed apart in the source
# insulin [5] = biological target: T1, insulin; type: biochemical; remark: listed apart in the source
# BALB/c mice = conditions: mouse, in vivo, sc
Substance,elution volume (size exclusion) (human insulin [1]) [mL],elution (size exclusion) (human insulin [1]; pH 2.6),average hydrodynamic radius (human insulin [2]) [nm],hydrodynamic radius (human insulin [2]) [nm],diffusion coefficient (D) (insulin [3]),molecular weight from DOSY (insulin [3]),secondary structure retention on heating (CD) (insulin [4]),hydrodynamic radius of insulin (insulin [5]) [nm],amyloidoma formation (BALB/c mice)
human insulin,118.5,broad peak was observed within the void volume,1.358,531 to 3580,,,,,
insulin,,,,,9.4 × 10^−5 cm^2sec^−1,approximately 57.0 kDa,loss of α-helical conformation,1000,forms a mass of extracellular amyloid fibrils in mice
